As a reminder, the Kd is the equilibrium constant for the complex coming apart. The low end stands for a tighter complex, the high end for a looser complex. Usually stoichiometry N stands for a count of units in the complex or per binding partner.

Kd, dH and stoichiometry N data for one substance are collected here from article PMC11527256.

In the experiment the target is Cdu1^CA, catalytically inactive Cdu1(130-401) with C345 mutated to Ala (Chlamydia trachomatis) (UniProt B0B9A0). The experiment is described as follows: ITC. Background: ITC needs no label: the signal is the heat of the interaction.

“mono-ubiquitin (wildtype, tag-free) (from UniProt P0CG48 1-76) (natural protein)” returned a Kd of 6.91 µM, a dH of 1.66 kcal/mol and a stoichiometry N of 0.81.
